Consider one molecule from patent US20260069590A1, “METHOD FOR TREATING NONTUBERCULOUS MYCOBACTERIAL INFECTION” (priority 2022, published 2026).

This data set can be described thus: Safety and tolerability of clofazimine delivered by nebulization in healthy subjects. The conditions noted are these: single and daily repeated doses for 7 days up to 90 mg, inhaled.

With `CC(C)/N=c1\cc2n(-c3ccc(Cl)cc3)c3ccccc3nc-2cc1Nc1ccc(Cl)cc1` [Clofazimine, N,5-bis(4-chlorophenyl)-3-propan-2-yliminophenazin-2-amine], the “tolerability, serious adverse-effects” value is listed as “well tolerated with no serious adverse-effects”.
